# Share of PSTVd stem 3 variants by leaf site

PSTVd intermediate strain, stem 3: wild type GUGGUUCCGGAACCGC, pool pattern GUGGUUCCGNANNCNN; upper and lower strand joined, each 5' to 3', the first 8 letters being the upper strand.

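Three N. benthamiana plants were inoculated with the whole mutant pool. Samples came from the inoculated region at 5 days, the leaf margin at 10 and upper systemic leaves at 12.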

Numbers give reads per thousand; 0 = not seen among the reads, higher = more abundant.
Each value is the mean of three plants.
"Pool" is the share in the plasmid pool used as inoculum, on the same scale.
The inoculated region was read from the minus strand, the other sites from the plus strand.
IR is the inoculated region, LM the leaf margin, Sys the systemic leaves.

sequence | pool | IR | LM | Sys
GUCGUUCCGUAACCGU | 0.0154 | 0 | 0 | 0
GUGGUUCAGGAUGCAC | 0.0154 | 0 | 0 | 0
GUGGUUCCAGUUGGUU | 0.339 | 0.984 | 0.299 | 2.02
GUGGUUCCGAAACCCA | 0.862 | 0.342 | 0.0347 | 0
GUGGUUCCGAAAUCGA | 1.12 | 0.919 | 0.0200 | 0.0143
GUGGUUCCGAACACAU | 0.862 | 0.807 | 0.552 | 0
GUGGUUCCGAAGACAC | 0.816 | 0.912 | 0.0212 | 0
GUGGUUCCGAAGACCC | 0.769 | 0.852 | 0.229 | 0
GUGGUUCCGAAGACCG | 1.00 | 0.731 | 0.411 | 0
GUGGUUCCGAAGACCU | 0.754 | 0.744 | 0.485 | 0
GUGGUUCCGAAGCCCG | 0.739 | 0.710 | 0.215 | 0
GUGGUUCCGAAGUCUA | 0.616 | 0.869 | 0.0215 | 0.0249
GUGGUUCCGAAUGCCG | 1.03 | 0.519 | 0.00944 | 0.0124
GUGGUUCCGAAUGCGU | 0.662 | 0.771 | 0.131 | 0
GUGGUUCCGCAAACUA | 0.631 | 0.292 | 0 | 0
GUGGUUCCGCAAGCGA | 2.14 | 0.990 | 0.0120 | 0.0373
GUGGUUCCGCAAGCUU | 0.831 | 0.386 | 0.0106 | 0
GUGGUUCCGCACACCA | 0.754 | 0.310 | 0.00944 | 0
GUGGUUCCGCACUCCA | 0.877 | 0.281 | 0.0106 | 0
GUGGUUCCGCACUCCU | 0.739 | 0.722 | 0.0949 | 0
GUGGUUCCGCAGCCGA | 0.862 | 0.381 | 0.0441 | 0
GUGGUUCCGCAGUCUA | 1.12 | 0.831 | 0.174 | 0.0123
GUGGUUCCGCAGUCUG | 0.877 | 0.939 | 0.0106 | 0
GUGGUUCCGCAUCCAG | 0.831 | 0.335 | 0 | 0
GUGGUUCCGCAUCCGC | 0.939 | 0.209 | 0 | 0.00621
GUGGUUCCGCAUUCCC | 1.31 | 0.609 | 0.0215 | 0.0311
GUGGUUCCGGAAACAU | 0.816 | 0.734 | 0.0106 | 0
GUGGUUCCGGAAGCUA | 0.785 | 0.275 | 0.0215 | 0
GUGGUUCCGGAAUCAU | 0.954 | 0.822 | 0.00944 | 0
GUGGUUCCGGACACAC | 0.739 | 0.326 | 0.0226 | 0
GUGGUUCCGGACUCUG | 1.00 | 0.361 | 0.0241 | 0
GUGGUUCCGGAGCCGU | 0.785 | 0.671 | 0.131 | 0
GUGGUUCCGGAGUCUG | 0.723 | 0.781 | 0.275 | 0
GUGGUUCCGGAUCCGA | 0.908 | 0.398 | 0.0865 | 0.00615
GUGGUUCCGGAUGCCA | 0.877 | 0.274 | 0.0200 | 0
GUGGUUCCGGAUGCCU | 0.785 | 0.313 | 0.0332 | 0
GUGGUUCCGUAAACCC | 1.25 | 0.399 | 0.0200 | 0.0559
GUGGUUCCGUAACCAA | 1.08 | 0.256 | 0 | 0
GUGGUUCCGUAACCUA | 0.954 | 0.298 | 0.00944 | 0
GUGGUUCCGUACACUG | 0.723 | 0.218 | 0 | 0
GUGGUUCCGUAGACAU | 0.785 | 0.607 | 0.437 | 0
GUGGUUCCGUAGGCUG | 0.831 | 0.229 | 0.0120 | 0
GUGGUUCCGUAGGCUU | 1.00 | 0.721 | 0.518 | 0
GUGGUUCCGUAGUCGU | 0.985 | 1.35 | 0.213 | 0.919
GUGGUUCCGUAUACUU | 1.25 | 0.603 | 0.0226 | 0.0186
GUGGUUCCGUUAUCCA | 0.0154 | 0 | 0 | 0

5 of these entries, quoted again:

{"sequence": "GUGGUUCCGUAUACUU", "pool": "1.25", "IR": 0.603, "LM": 0.0226, "Sys": 0.0186}
{"sequence": "GUGGUUCCGUAGGCUU", "pool": "1.00", "IR": 0.721, "LM": 0.518, "Sys": 0}
{"sequence": "GUGGUUCCGUACACUG", "pool": "0.723", "IR": 0.218, "LM": 0, "Sys": 0}
{"sequence": "GUGGUUCCGUUAUCCA", "pool": "0.0154", "IR": 0, "LM": 0, "Sys": 0}
{"sequence": "GUGGUUCCGUAACCUA", "pool": "0.954", "IR": 0.298, "LM": 0.00944, "Sys": 0}

Wild type was 17.3 per thousand in the pool and the most common sequence in every sample (inoculated region 330, 345, 235; leaf margin 794, 766, 816; systemic leaves 830, 792, 869).
With 27,691-54,225 reads a sample, very low values are single reads.
The authors trace changes outside the varied positions to PCR and sequencing errors or to mutation in the plant; presence does not show that a variant is infectious alone.

Data from the supplement of Wu et al. 2024, doi:10.1371/journal.ppat.1012142.